Source: patent US20230302140A1, “CONJUGATE OF A SINGLE DOMAIN ANTIBODY, A SAPONIN AND AN EFFECTOR MOLECULE, PHARMACEUTICAL COMPOSITION COMPRISING THE SAME, THERAPEUTIC USE OF SAID PHARMACEUTICAL COMPOSITION” (SAPREME TECHNOLOGIES B.V., priority 2020, published 2023)
pIC50: −log10 of the molar value.

Key:
HeLa cells = test: Cell killing (MTS cell viability) assay; format: cell-based, human; settings: +300 nM Trastuzumab-SO1861 (fixed, Table A7)
JIMT-1 cells = test: Cell killing (MTS cell viability) assay; format: cell-based, human
SK-BR-3 cells = test: Cell killing (MTS cell viability) assay; format: cell-based, human
A431 cells = test: Cell killing (MTS cell viability) assay; format: cell-based, human
A2058 cells = test: Cell killing (MTS cell viability) assay; format: cell-based, human; settings: +1500 nM SO1861 (unconjugated)
MDA-MB-468 cells = test: Cell killing (MTS cell viability) assay; format: cell-based, human; settings: +1388 nM Cetuximab-SO1861 (fixed)
tumor = test: In vivo mouse tumor models, ADC with free saponin; settings: free saponin given separately, various routes, time points and doses
[1] = +[…] trastuzumab-(Cys-L-SO1861)^4 (fixed)

Substance “cetuximab-saporin: monoclonal antibody recognizing and binding EGFR, conjugated to the protein toxin saporin” has a pIC50 (HeLa cells) of 10.30, a pIC50 (JIMT-1 cells; +300 nM Trastuzumab-SO1861 (fixed, Table A7)) of 10.05 and a pIC50 (JIMT-1 cells; [1]) of 10.10. It also gave a pIC50 (SK-BR-3 cells; +[…] trastuzumab (fixed)) of less than 8.40, a pIC50 (SK-BR-3 cells; [1]) of 12.00 and a pIC50 (SK-BR-3 cells; toxin or toxin conjugate titrated alone (no SO1861)) of less than 8.40.
“Trastuzumab-Dianthin: trastuzumab-protein toxin conjugate, DAR 1.0” showed a pIC50 (A431 cells; +1388 nM Cetuximab-SO1861 (fixed)) of 10.52, a pIC50 (A431 cells; +1500 nM SO1861 (unconjugated)) of 10.22 and a pIC50 (A2058 cells) of 11.30. For the same substance, the pIC50 (MDA-MB-468 cells) was 9.30.
In the case of “cetuximabdianthin: ADC tested in in vivo tumor models with free SO1861”, the “anti-tumor activity of ADC administered with free SO1861” value (tumor) was “did not result in any desired anti-tumor activity”.
